## Potato spindle tuber viroid, stem 3: variant abundance in plants

Source: Wu et al. 2024 (doi:10.1371/journal.ppat.1012142), supplementary data.

Region: stem 3 of PSTVd (intermediate strain), upper and lower strand joined, each 5' to 3', the first 8 letters being the upper strand. Wild type: GUGGUUCCGGAACCGC. Varied positions (N): GUGGUUCCGNANNCNN.

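Three N. benthamiana plants were inoculated with the whole mutant pool. Progeny were sequenced from the inoculated region (day 5), the margin of the inoculated leaf (day 10) and systemic leaves (day 12).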

Numbers give reads per thousand; 0 = not seen among the reads, higher = more abundant. Each value is the mean of three plants. "Pool" is the share in the plasmid pool used as inoculum, on the same scale. The inoculated region was read from the minus strand, the other sites from the plus strand. IR is the inoculated region, LM the leaf margin, Sys the systemic leaves. For reference, wild type rose from 17.3 per thousand in the pool to 330, 345, 235 (inoculated region), 794, 766, 816 (leaf margin) and 830, 792, 869 (systemic leaves). The authors trace changes outside the varied positions to PCR and sequencing errors or to mutation in the plant; presence does not show that a variant is infectious alone. Samples held 27,691 to 54,225 reads, so the smallest values rest on one or two reads.

* GUGGUUCCGCACCCCA (pool 0.908) = IR 0.275; LM 0; Sys 0
* GUGGUUCCGGACACCC (pool 0.754) = IR 0.315; LM 0.0120; Sys 0
* GUGGGUCCGAAAGCGG (pool 0.0154) = IR 0; LM 0; Sys 0
* GUGGUUCCGGACUCGA (pool 0.708) = IR 0.283; LM 0.0200; Sys 0
* GUGGUUCCGGAGACAG (pool 0.662) = IR 0.776; LM 0.120; Sys 0
* GUGGUUCCGUAACCUG (pool 0.939) = IR 0.368; LM 0; Sys 0
* AUGGUUCCGAAGCCUG (pool 0.0154) = IR 0; LM 0; Sys 0
* GUGGUUCCGCAUGCUA (pool 0.970) = IR 0.229; LM 0; Sys 0
* GUGGUUCCGGAGCCUC (pool 1.02) = IR 0.378; LM 0.0120; Sys 0
* GUGGUUCCGGACUCGG (pool 1.00) = IR 0.333; LM 0.0309; Sys 0
* GUGGUUCCGCAUACAA (pool 0.816) = IR 0.339; LM 0.0200; Sys 0
* GUGGUUCCGGAAACCC (pool 0.816) = IR 0.442; LM 0.00944; Sys 0
* GUGGUUCCGGAAGCAC (pool 0.662) = IR 0.253; LM 0; Sys 0
* GUGGUUCCGAAGGCGC (pool 0.954) = IR 1.26; LM 0.768; Sys 0
* GUGGUUCCGAAGGCUC (pool 0.785) = IR 0.924; LM 0.209; Sys 0
* GUGGUUCCGCAUGCAG (pool 1.02) = IR 0.260; LM 0.0200; Sys 0
* GUGGUUCCGCAAUCGU (pool 0.846) = IR 0.693; LM 0; Sys 0
* GUGGUUCCGAAAGCGA (pool 0.831) = IR 0.272; LM 0.0241; Sys 0
* GUGGUUCCGAAAGCGG (pool 0.939) = IR 0.244; LM 0.0120; Sys 0
* GUGGUUCCGAAGGCAG (pool 0.708) = IR 0.765; LM 0.414; Sys 0
* GUGGUUCCGUAUGCAA (pool 1.22) = IR 0.243; LM 0; Sys 0
* GUGGUUCCGUACACUU (pool 0.954) = IR 0.314; LM 0.0120; Sys 0
* GUGGUUCCGCAUUCGU (pool 1.06) = IR 0.758; LM 0.00944; Sys 0.0683
* GUGGUUCCGAAUGGCA (pool 0.0154) = IR 0; LM 0; Sys 0
* GUGGUUCCGCAUACCG (pool 0.631) = IR 0.274; LM 0.0120; Sys 0
* GUGGUUCCGAAAACAU (pool 1.06) = IR 0.939; LM 0.974; Sys 1.11
* GUGGUUCCGUAGACCU (pool 0.908) = IR 0.862; LM 0.0120; Sys 0
* GUGGUUCCGAAUGCCU (pool 0.523) = IR 0.786; LM 0.154; Sys 0
* GUGGUUCCGUAUCCGA (pool 0.739) = IR 0.229; LM 0; Sys 0
* GUGGGUCCGUAUACCU (pool 0.0154) = IR 0; LM 0; Sys 0
* GUGGUUCCGAAUCCCA (pool 1.62) = IR 1.08; LM 0.156; Sys 0.0764

4 of these entries, quoted again:

sequence	pool	IR	LM	Sys
GUGGUUCCGAAAGCGA	0.831	0.272	0.0241	0
GUGGUUCCGCAAUCGU	0.846	0.693	0	0
GUGGUUCCGGACUCGG	1.00	0.333	0.0309	0
GUGGUUCCGCAUUCGU	1.06	0.758	0.00944	0.0683